Values from PubChem BioAssay AID1259414 (Drosophila RNAi Screening Center, 2018).
The screen tested about 24,000 reagents; below is an unselected part of those with a known target gene and a result. In the full data, about 1,210 (5%) were called active. 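Inactive calls also include excluded dsRNAs with several or no targets, genes unexpressed in JW18, and well A1, regardless of score.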 Reagents against one gene are numbered here. A plus sign joins genes that one reagent is predicted to hit.

Test: 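Host factors increasing or decreasing Wolbachia levels in cultured fly cells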 (primary screen)
Cell system: Drosophila JW18 cells infected with Wolbachia
Knock-down reagent: long dsRNA against Drosophila genes, 0.25 µg dsRNA per well of a 384-well plate
Time to read-out: 5 days
Conditions: cells persistently infected with Wolbachia before knock-down; no added drug
Read-out: 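Automated imaging of bacterial rRNA staining divided by host cell count, reported as plate-normalised robust z-score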
Direction: Wolbachia per cell robust z: higher = more Wolbachia per host cell than the plate typical
Active means: 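Hit when robust z is 1.5 or more, or -1.5 or less, in at least two of three replicates; excludes dsRNAs with several or no targets, genes not expressed in JW18 and well A1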

target gene	reagent	Wolbachia per cell robust z, rep 1	Wolbachia per cell robust z, rep 2	Wolbachia per cell robust z, rep 3	Call
Idgf5 (Imaginal disc growth factor 5)	1	-0.424	-1.34	0.168	inactive
Idgf5 (Imaginal disc growth factor 5)	2	-0.955	-0.984	0.607	inactive
Lectin-galC1 (Galactose-specific C-type lectin)	1	0.677	0.779	0.844	inactive
dos	1	3.76	2.36	4.45	inactive
dos	2	-0.319	-0.296	-0.312	inactive
dos	3	-0.215	0.662	0.61	inactive
CG4622 + CG11413	1	0.306	1.35	0.729	inactive
CG3588	1	-0.682	-3.14	-0.55	inactive
CG3588	2	-0.324	0.217	1.68	inactive
CG1074	1	-2.86	0.195	1.07	inactive
CG1074	2	-0.692	0.0261	0.162	inactive
CG34056	1	-2.65	-2.09	-0.543	active
CG34056	2	-0.925	-0.999	-0.964	inactive
CG32189	1	0.553	1.32	-0.0272	inactive
CG32189	2	0.56	2.33	0.32	inactive
CG34282	1	-0.103	0.568	-0.425	inactive
ATP8B (ATPase 8B)	1	0.793	-0.0625	0.346	inactive
CR34320 (pseudo)	1	0.181	0.673	-0.658	inactive
rept (reptin)	1	-0.0442	1.18	-0.613	inactive
rept (reptin)	2	-2.3	1.1	0.836	inactive
CG31287	1	0.697	0.917	0.236	inactive
Tsp42Eq (Tetraspanin 42Eq)	1	-2.65	1	-0.224	inactive
reb (rebuf)	1	-5.92	0.72	0.161	inactive
Tbc1d8-9 (TBC1 domain family member 8/9)	1	0.494	0.741	-0.462	inactive
CG3829	1	-0.184	-0.317	-5.3	inactive
Six4	1	0.967	0.92	0.711	inactive
Six4	2	-0.0283	0.488	0.736	inactive
CG8708	1	0.865	-0.639	0.399	inactive
CG8708	2	-0.84	0.513	-0.0795	inactive
Pcif1 (Phosphorylated CTD-interacting factor 1)	1	0.374	-0.444	0.0042	inactive
Pcif1 (Phosphorylated CTD-interacting factor 1)	2	0.157	-0.44	0.471	inactive
smg (smaug)	1	-0.523	-1.03	-0.338	inactive
smg (smaug)	2	0.956	-0.456	-0.525	inactive
CG13314	1	-0.453	-1.09	0.673	inactive
comm (commissureless)	1	0.109	0.414	0.711	inactive
comm (commissureless)	2	0.191	2.53	1.94	active
Gr8a (Gustatory receptor 8a)	1	-1.26	0.827	0.0158	inactive
sti (sticky)	1	1.09	3.26	2.75	active
sti (sticky)	2	2.36	2.71	2.94	active
CR41597 + mRpS5 + CR42723 + 1 more	1	-1.32	-1.43	-6.33	inactive
Nsun2 (NOP2-Sun domain family, member 2)	1	0.744	0.968	0.956	inactive
Nsun2 (NOP2-Sun domain family, member 2)	2	0.968	-1.01	1.01	inactive
Alg14 (ALG14, UDP-N-acetylglucosaminyltransferase subunit)	1	1.18	1.14	0.415	inactive
PNKP (Polynucleotide kinase 3'-phosphatase)	1	0.77	0.429	0.602	inactive
kumpel (kin of rumpel)	1	-4.46	0.731	-0.0103	inactive
kumpel (kin of rumpel)	2	0.731	0.471	0.308	inactive
kumpel (kin of rumpel)	3	0.687	-0.921	0.143	inactive
kumpel (kin of rumpel)	4	0.735	-1.79	0.709	inactive
kumpel (kin of rumpel)	5	0.306	-0.385	0.601	inactive
kumpel (kin of rumpel)	6	0.35	-0.0449	-0.59	inactive
kumpel (kin of rumpel)	7	0.465	-0.376	-0.118	inactive
kumpel (kin of rumpel)	8	-0.451	-1.37	0.503	inactive
CG1316	1	0.654	0.476	0.234	inactive
aqrs (aquarius)	1	-0.472	-4.46	-1.06	inactive
CG30046	1	-3.41	1.22	-0.736	inactive
CG5326	1	0.914	1.21	0.901	inactive
CG5326	2	0.747	-2.36	0.537	inactive
CG5326	3	-0.279	0.952	0.276	inactive
Mes2 (Mesoderm-expressed 2)	1	-0.233	2.38	-2.65	inactive
Mes2 (Mesoderm-expressed 2)	2	0.938	1.62	1.25	inactive
put (punt)	1	0.17	1.02	1.73	inactive
put (punt)	2	0.086	-1.23	0.00303	inactive
CG3566	1	-5.31	-0.233	-1.01	inactive
CG3566	2	0.253	0.175	-2.48	inactive
RhoGEF3 (Rho guanine nucleotide exchange factor 3)	1	-1.1	-0.817	-0.512	inactive
RhoGEF3 (Rho guanine nucleotide exchange factor 3)	2	-0.319	0.259	-0.411	inactive
RhoGEF3 (Rho guanine nucleotide exchange factor 3)	3	0.282	0.254	-0.132	inactive
RhoGEF3 (Rho guanine nucleotide exchange factor 3)	4	-4.55	-0.221	-0.325	inactive
CG31633	1	0.699	-6.45	0.498	inactive
CG31633	2	-2.58	-0.00202	-1.25	inactive
CG42331	1	0.0883	-1.82	0.133	inactive
CG42331	2	-4.31	-1.91	-4.66	inactive
CG42331	3	-0.538	0.752	-0.27	inactive
CG9447	1	0.433	-0.603	0.37	inactive
CG7183	1	-1.27	-0.473	-1.93	inactive
CG8738	1	-0.716	1.4	1.33	inactive
RecQ5 (RecQ5 helicase)	1	1.19	-0.067	0.5	inactive
CG43312	1	0.547	-2.7	1.27	inactive
Pef (Peflin)	1	0.419	-0.114	0.441	inactive
CG34125	1	0.0117	-0.633	-0.333	inactive
CG32195	1	-1.42	-1.14	-1.67	inactive
CG12402	1	-0.782	0.509	-0.543	inactive
CG12402	2	0.975	0.668	1.15	inactive
CG34451	1	-1.21	0.6	0.365	inactive
Echs1 (Enoyl-CoA hydratase, short chain 1)	1	-0.862	-0.219	-1.45	inactive
rau	1	0.375	-0.65	-1.16	inactive
rau	2	-0.0104	-0.58	-0.663	inactive
